Compound potency records, mixed from different reports. Data source: NIAID ChemDB in PubChem.

Shared fields: whole-cell or culture tests; agent: HIV-2; read-out: EC50

ECn: concentration that inhibits the pathogen or its effect by n%.

structure,strain or isolate,cell line,method,value
c1ccc(CNCc2ccc(CN3CCCNCCNCCCNCC3)cc2)nc1,ROD,-,-,0.03 µg/mL
Cc1nc(CCCCCCC(=O)c2ccccc2)n2nc(NCCCCCCCCCCCCNCc3cn([C@H]4C=C[C@@H](CO)O4)c(=O)[nH]c3=O)ccc12,D194,PBMC,RT activity,0.16 µM
CC(=O)Oc1ccc(COP(=O)(OCc2ccc(OC(=O)c3ccc(C(F)(F)F)cc3)cc2)OP(=O)(O)OCC2C=C[C@H](n3cc(C)c(=O)[nH]c3=O)O2)cc1,ROD,CEM/TK-,syncytia,6.31 µM
CCCCCCC(=O)Oc1ccc(COP(=O)(OCc2ccc(OC(=O)CCCCCC)cc2)OP(=O)([O-])OC[C@@H]2C=C[C@H](n3ccc(=O)[nH]c3=O)O2)cc1,ROD,CEM/TK-,syncytia,24 µM
O=[N+]([O-])c1ccccc1CS(=O)(=O)c1cccc[n+]1[O-],ROD,CEM,syncytia,≥4 µg/mL
Nn1cc[nH]c1=S,ROD,-,-,0.2–4 µg/mL
Cn1c(=O)cc(Oc2nc(Nc3ccc(C#N)cc3)nc(Oc3cc(=O)oc4ccccc34)n2)c2ccccc21,ROD,-,MTT,>69.2 µg/mL
c1ccc(COc2cccnc2SCc2ccccc2)cc1,ROD,CEM,syncytia,>4 µg/mL
COC(=O)c1ccccc1S(=O)(=O)c1ccsc1NC=O,ROD,CEM + CEM/O,cytopathic effect / MTT,40 µg/mL
CCCCCCCCCC(=O)Oc1ccc(COP(=O)(OCc2ccc(OC(=O)CCCC)cc2)OP(=O)(O)OCC2C=C[C@H](n3cc(C)c(=O)[nH]c3=O)O2)cc1,ROD,CEM/TK-,syncytia,6.31 µM
O=C(Nc1sccc1S(=O)(=O)c1ccc(F)cc1)C(F)(F)F,ROD,CEM + CEM/O,cytopathic effect / MTT,>1.6 µg/mL
COc1cc(C)cc2c(-c3c(O)cc(O)c4c3C[C@H](C)N[C@H]4C)cc(-c3cc(-c4c(O)cc(O)c5c4C[C@H](C)N[C@H]5C)c4cc(C)cc(OC)c4c3O)c(O)c12,CBL-20,CEM + CEM-SS,cytopathic effect / XTT,2 µM
C[C@H](NC(=O)CCC(CCC(=O)N[C@@H](C)C(=O)O)(CCC(=O)N[C@@H](C)C(=O)O)NC(=O)CCOCC(COCCC(=O)NC(CCC(=O)N[C@@H](C)C(=O)O)(CCC(=O)N[C@@H](C)C(=O)O)CCC(=O)N[C@H](C)C(=O)O)(COCCC(=O)NC(CCC(=O)N[C@@H](C)C(=O)O)(CCC(=O)N[C@H](C)C(=O)O)CCC(=O)N[C@H](C)C(=O)O)COCCC(=O)NC(CCC(=O)N[C@@H](C)C(=O)O)(CCC(=O)N[C@H](C)C(=O)O)CCC(=O)N[C@H](C)C(=O)O)C(=O)O,ROD,CD4+ T-cell,MTS,>100 µM
O=C(Nc1sccc1S(=O)(=O)c1ccc(Cl)cc1)C(F)(F)C(F)(F)C(F)(F)F,ROD,CEM + CEM/O,cytopathic effect / MTT,>8 µg/mL
CCCCCCCCCCCC(=O)Oc1ccc(COP(=O)(OCc2ccc(OC(C)=O)cc2)OP(=O)(O)OCC2C=C[C@H](n3cc(C)c(=O)[nH]c3=O)O2)cc1,ROD,CEM/TK-,syncytia,6.31 µM
O=C(Nc1sccc1S(=O)(=O)c1ccccc1)c1cccnc1,ROD,CEM + CEM/O,cytopathic effect / MTT,>1.6 µg/mL
O=C1C=CC(=C(c2ccc(O)cc2)c2ccc(O)cc2)C=C1,ROD,MOLT-4,syncytia,>100 µg/mL
Cc1cn([C@H]2C=C[C@@H](CO)O2)c(=O)[nH]c1=O,ROD,CEM/TK-,syncytia,250 µM
Cc1cn([C@H]2C[C@H](N=[N+]=[N-])[C@@H](CO)O2)c(=O)[nH]c1=O,CBL-20,C8166,syncytia,0.00662 µM
Cc1cccc(O)c1O,ROD,MOLT-4,syncytia,24 µg/mL
CC(C)CN(C[C@@H](O)[C@H](Cc1ccccc1)NC(=O)O[C@H]1CO[C@H]2OCC[C@H]21)S(=O)(=O)c1ccc2c(c1)OCO2,EHO,MT-2,MTT,0.0032 µM
Cn1c(=O)cc(Oc2nc(Nc3ccc(C#N)cc3)nc(Sc3nnc(-c4ccncc4)o3)n2)c2ccccc21,ROD,-,MTT,>68.75 µg/mL
Cc1ccc(C)c(CSc2c(O)ccc[n+]2[O-])c1,ROD,CEM,syncytia,>20 µg/mL
Cc1nc(CCCCCCC(=O)c2ccccc2)n2nc(NCCCCCCCCCCNCc3cn([C@H]4C=C[C@@H](CO)O4)c(=O)[nH]c3=O)ccc12,D194,PBMC,RT activity,0.31 µM
Oc1cccc(O)c1O,ROD,MOLT-4,syncytia,9 µg/mL
CC(=O)Nc1sccc1S(=O)(=O)c1ccccc1[N+](=O)[O-],ROD,CEM + CEM/O,cytopathic effect / MTT,>1.6 µg/mL
Cc1ccc(C)c(CS(=O)(=O)c2cccc(C)[n+]2[O-])c1,ROD,CEM,syncytia,>100 µg/mL
CCc1c(Sc2cc(C)cc(C)c2)n(CCCCC(=O)OC)c(=O)[nH]c1=O,D194,PBMC,-,>10 µM
Cn1c(=O)cc(Oc2nc(Nc3ccc(C#N)cc3)nc(Nc3cnccn3)n2)c2ccccc21,ROD,-,MTT,>83.58 µg/mL
O=C(Nc1sccc1S(=O)(=O)c1ccccc1)C(F)(F)F,ROD,CEM + CEM/O,cytopathic effect / MTT,>8 µg/mL
CCCCCCC(=O)Oc1ccc(COP(=O)(OCc2ccc(OC(=O)CCCCCC)cc2)OP(=O)([O-])OC[C@@H]2CC[C@H](n3ccc(=O)[nH]c3=O)O2)cc1,ROD,CEM/TK-,syncytia,>50 µM
CC(=O)Nc1sccc1S(=O)(=O)c1ccc(Cl)cc1,ROD,CEM + CEM/O,cytopathic effect / MTT,>40 µg/mL
CCCCCCCCCC(=O)Oc1ccc(COP(=O)(OCc2ccc(OC(=O)CCCCCCCCC)cc2)OP(=O)([O-])OC[C@@H]2C=C[C@H](n3ccc(=O)[nH]c3=O)O2)cc1,ROD,CEM/TK-,syncytia,>10 µM
Cc1nc(CCCCCCC(=O)c2ccccc2)n2nc(NCCCCCCCCNCc3cn([C@H]4C=C[C@@H](CO)O4)c(=O)[nH]c3=O)ccc12,D194,PBMC,RT activity,0.22 µM
CCOC(=O)c1nnsc1NCc1ccccc1N,ROD,-,-,>290 µM
O=[N+]([O-])c1ccc(SCc2ccccc2)nc1,ROD,CEM,syncytia,>20 µg/mL
C=CCNc1c(N=Nc2ccc(-c3ccc(F)cc3)cc2)c(N)nc(=O)n1C,ROD,MT-2,MTT,>10.42 µM
Cn1c(=O)cc(Oc2nc(Nc3ccc(C#N)cc3)nc(Oc3cc(=O)n(C)c4ccccc34)n2)c2ccccc21,ROD,-,MTT,>79.48 µg/mL
COc1ccc(CS(=O)c2cccc[n+]2[O-])cc1OC,ROD,CEM,syncytia,>0.8 µg/mL
O=C(O)c1ccc(O)c(O)c1,ROD,MOLT-4,syncytia,5 µg/mL
Nc1ncnc2c1ccn2[C@H]1C=C[C@@H](CO)C1,D205,PBMC,RT activity,0.35 µM
[O-][n+]1ccccc1SCc1ccccc1,ROD,CEM,syncytia,>100 µg/mL
CCCCCCCCCCCC(=O)Oc1ccc(COP(=O)(OCc2ccc(OC(=O)CCCCCCCCCCC)cc2)OP(=O)([O-])OC[C@@H]2C=C[C@H](n3ccc(=O)[nH]c3=O)O2)cc1,ROD,CEM/TK-,syncytia,>50 µM
Cc1nc(CCCCCCC(=O)c2ccccc2)n2nc(NCCCCCCCCCCN)ccc12,D194,PBMC,RT activity,>10 µM
CC(Cl)(c1ccccc1)S(=O)(=O)c1cccc[n+]1[O-],ROD,CEM,syncytia,>20 µg/mL
CCCCC(=O)Oc1ccc(COP(=O)(OCc2ccc(OC(=O)c3ccc(C)cc3)cc2)OP(=O)(O)OCC2C=C[C@H](n3cc(C)c(=O)[nH]c3=O)O2)cc1,ROD,CEM/TK-,syncytia,6.31 µM
Cc1ccc(Cl)c(C(C)S(=O)c2cccc[n+]2[O-])c1,ROD,CEM,syncytia,>0.16 µg/mL
Cn1c(=O)cc(Oc2nc(Nc3ccc(C#N)cc3)nc(Nc3nc4ccccc4s3)n2)c2ccccc21,ROD,-,MTT,>82.93 µg/mL
Cc1ccc(C)c(C(CCCCCCBr)S(=O)(=O)c2cccc[n+]2[O-])c1,ROD,CEM,syncytia,>0.8 µg/mL
Nc1nc2c(ccn2[C@H]2C=C[C@@H](CO)C2)c(=O)[nH]1,D194,PBMC,RT activity,6 µM
COc1cccnc1SCc1cc(C)ccc1C,ROD,CEM,syncytia,40 µg/mL
Cc1nc(CCCCCCC(=O)c2ccccc2)n2nc(NCCCCCCCCCCCCN)ccc12,D194,PBMC,RT activity,>10 µM
Cc1ccc(C)c(CS(=O)c2ncccc2O)c1,ROD,CEM,syncytia,>100 µg/mL
Cc1cn([C@H]2C=C[C@@H](CO)O2)c(=O)[nH]c1=O,D194,PBMC,RT activity,0.18 µM
COc1ccc(CS(=O)c2cccc[n+]2[O-])cc1,ROD,CEM,syncytia,>0.8 µg/mL
CC(C)=CCOc1cc(NC(=S)c2ccoc2C)ccc1Cl,ROD,CEM + CEM-SS,p24,>2 µM
O=C(O)/C=C/c1ccc(O)c(O)c1,ROD,MOLT-4,syncytia,7 µg/mL
Cc1ccc(CS(=O)c2cccc[n+]2[O-])cc1,ROD,CEM,syncytia,>4 µg/mL

The last 7 rows once more:

structure,strain or isolate,cell line,method,value
Cc1nc(CCCCCCC(=O)c2ccccc2)n2nc(NCCCCCCCCCCCCN)ccc12,D194,PBMC,RT activity,>10 µM
Cc1ccc(C)c(CS(=O)c2ncccc2O)c1,ROD,CEM,syncytia,>100 µg/mL
Cc1cn([C@H]2C=C[C@@H](CO)O2)c(=O)[nH]c1=O,D194,PBMC,RT activity,0.18 µM
COc1ccc(CS(=O)c2cccc[n+]2[O-])cc1,ROD,CEM,syncytia,>0.8 µg/mL
CC(C)=CCOc1cc(NC(=S)c2ccoc2C)ccc1Cl,ROD,CEM + CEM-SS,p24,>2 µM
O=C(O)/C=C/c1ccc(O)c(O)c1,ROD,MOLT-4,syncytia,7 µg/mL
Cc1ccc(CS(=O)c2cccc[n+]2[O-])cc1,ROD,CEM,syncytia,>4 µg/mL

Conditions beyond the fields shown may differ between rows. An empty or dashed field is not shown. a–b is a range or a potency band.